{"source": "PubChem BioAssay AID504761, Drosophila RNAi Screening Center | 2011", "test": "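Insect host genes that dengue virus relies on to spread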 (primary screen)", "cell system": "D.Mel-2 cells from Drosophila", "knock-down reagent": "long dsRNA against Drosophila genes", "challenge": "infection with dengue virus type 2; dose and infection time not stated", "detection": "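Cells stained for dengue envelope protein and imaged; percent of infected cells per well on duplicate plates, ranked by infection, with stained nuclei counted for cell number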", "reading the numbers": "infection score: higher = more virus-infected cells; cell count: higher = more cells in the well", "rule for the call": "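Low infection ranks in the two replicates (chance level up to 0.065) followed by a retest with a 1.5-fold or larger significant decrease, p below 0.05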", "calls": "active = confirmed: knock-down lowers infection; inactive = not picked or not confirmed", "note": "In all, the deposit lists about 22,000 reagents; shown is an unselected part of those that have a named target and a result. Over the whole deposit, 116 (0.52%) are marked active. 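Calls depend on retest data that are not deposited; infection was ranked per plate without normalising between plates; the unit of the infection score is not given.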 The raw values are shown without normalisation. Unmarked entries are inactive. Reagents against one gene are numbered here. A plus sign joins genes that one reagent is predicted to hit. Reagent sequences are not shown. The record does not give: the amount of reagent, the time to read-out."}
{"predicted target":"TBC1d7 + mRpS24","dsRNA no.":1,"infection score, replicate 1":6.38,"infection score, replicate 2":2.79,"cell count, replicate 1":6349,"cell count, replicate 2":6266}
{"predicted target":"CG13907","dsRNA no.":1,"infection score, replicate 1":3.59,"infection score, replicate 2":3.03,"cell count, replicate 1":6401,"cell count, replicate 2":6435}
{"predicted target":"CG13907","dsRNA no.":2,"infection score, replicate 1":0.72,"infection score, replicate 2":1.06,"cell count, replicate 1":6909,"cell count, replicate 2":6595}
{"predicted target":"CG13955","dsRNA no.":1,"infection score, replicate 1":6.33,"infection score, replicate 2":12.5,"cell count, replicate 1":6687,"cell count, replicate 2":6005}
{"predicted target":"Hr3","dsRNA no.":1,"infection score, replicate 1":11,"infection score, replicate 2":12.8,"cell count, replicate 1":6205,"cell count, replicate 2":6228}
{"predicted target":"Ir11a","dsRNA no.":1,"infection score, replicate 1":2.23,"infection score, replicate 2":1.53,"cell count, replicate 1":6503,"cell count, replicate 2":6586}
{"predicted target":"His-Psi:CR31616 + His-Psi:CR31615","dsRNA no.":1,"infection score, replicate 1":7.84,"infection score, replicate 2":5.94,"cell count, replicate 1":5023,"cell count, replicate 2":5273}
{"predicted target":"osk","dsRNA no.":1,"infection score, replicate 1":19.9,"infection score, replicate 2":19.4,"cell count, replicate 1":5117,"cell count, replicate 2":5704}
{"predicted target":"IFT46","dsRNA no.":1,"infection score, replicate 1":21.7,"infection score, replicate 2":20.3,"cell count, replicate 1":5950,"cell count, replicate 2":5855}
{"predicted target":"ssp","dsRNA no.":1,"infection score, replicate 1":16.1,"infection score, replicate 2":13.4,"cell count, replicate 1":5991,"cell count, replicate 2":5989}
{"predicted target":"CG34221","dsRNA no.":1,"infection score, replicate 1":14.8,"infection score, replicate 2":5.81,"cell count, replicate 1":5499,"cell count, replicate 2":6098}
{"predicted target":"CG14546","dsRNA no.":1,"infection score, replicate 1":7.77,"infection score, replicate 2":2.96,"cell count, replicate 1":6513,"cell count, replicate 2":6495}
{"predicted target":"CG15185","dsRNA no.":1,"infection score, replicate 1":8.61,"infection score, replicate 2":20.7,"cell count, replicate 1":7070,"cell count, replicate 2":4555}
{"predicted target":"hob","dsRNA no.":1,"infection score, replicate 1":8.9,"infection score, replicate 2":6.43,"cell count, replicate 1":6598,"cell count, replicate 2":6037}
{"predicted target":"hob","dsRNA no.":2,"infection score, replicate 1":4.38,"infection score, replicate 2":3.72,"cell count, replicate 1":6191,"cell count, replicate 2":5862}
{"predicted target":"st","dsRNA no.":1,"infection score, replicate 1":2.64,"infection score, replicate 2":5.16,"cell count, replicate 1":6822,"cell count, replicate 2":6216}
{"predicted target":"st","dsRNA no.":2,"infection score, replicate 1":15.7,"infection score, replicate 2":9.27,"cell count, replicate 1":4930,"cell count, replicate 2":6519}
{"predicted target":"PKD","dsRNA no.":1,"infection score, replicate 1":2.87,"infection score, replicate 2":1.96,"cell count, replicate 1":6691,"cell count, replicate 2":6016}
{"predicted target":"Cpn","dsRNA no.":1,"infection score, replicate 1":10.9,"infection score, replicate 2":5.84,"cell count, replicate 1":6117,"cell count, replicate 2":6298}
{"predicted target":"Cpn","dsRNA no.":2,"infection score, replicate 1":1.88,"infection score, replicate 2":3.92,"cell count, replicate 1":6179,"cell count, replicate 2":5944}
{"predicted target":"dj","dsRNA no.":1,"infection score, replicate 1":4.81,"infection score, replicate 2":12,"cell count, replicate 1":6691,"cell count, replicate 2":5501}
{"predicted target":"dj","dsRNA no.":2,"infection score, replicate 1":1.12,"infection score, replicate 2":0.52,"cell count, replicate 1":6757,"cell count, replicate 2":6521}
{"predicted target":"CG13280","dsRNA no.":1,"infection score, replicate 1":4.62,"infection score, replicate 2":1.37,"cell count, replicate 1":6737,"cell count, replicate 2":6505}
{"predicted target":"Polr3F","dsRNA no.":1,"infection score, replicate 1":1.13,"infection score, replicate 2":5.19,"cell count, replicate 1":6004,"cell count, replicate 2":6663}
{"predicted target":"mTTF","dsRNA no.":1,"infection score, replicate 2":20.6,"cell count, replicate 1":477,"cell count, replicate 2":5198}
{"predicted target":"CG6142","dsRNA no.":1,"infection score, replicate 1":1.94,"infection score, replicate 2":6.86,"cell count, replicate 1":824,"cell count, replicate 2":6750}
{"predicted target":"CG32459","dsRNA no.":1,"infection score, replicate 1":25.4,"infection score, replicate 2":20.9,"cell count, replicate 1":6675,"cell count, replicate 2":6445}

Looked up above.
Under “infection score, replicate 1”, Hr3 is entered as 11
Value for PKD in “cell count, replicate 1”: 6691
